According to patent US20260242416A1, “ANTIMICROBIAL PEPTIDES” (priority 2023, published 2026):
Where a SMILES comes first, the peptide text is derived from it.

Tested on: microbial cells over eukaryotic cells
Assay: Selectivity index (ratio of the toxicity to the MIC)
Settings: range of selectivity indices, N/O = no observed antimicrobial activity; for Selectivity Index E. coli: E. coli (first of three slash-separated values); for Selectivity Index S. Enteritidis: S. Enteritidis (second of three slash-separated values); for Selectivity Index S. aureus: S. aureus (third of three slash-separated values)

SMILES	Selectivity Index E. coli	Selectivity Index S. Enteritidis	Selectivity Index S. aureus
CC[C@H](C)[C@H](NC(=O)CN)C(=O)N[C@@H](CC(C)C)C(=O)N[C@@H](CCCNC(=N)N)C(=O)N[C@@H](CO)C(=O)N[C@@H](CC(C)C)C(=O)NCC(=O)N[C@@H](Cc1c[nH]c2ccccc12)C(=O)N[C@H](C(=O)N[C@@H](CCC(N)=O)C(=O)N[C@@H](CCSC)C(=O)N1CCC[C@H]1C(=O)N[C@@H](CCCNC(=N)N)C(=O)N[C@@H](CO)C(=O)N[C@@H](CCCNC(=N)N)C(=O)N[C@@H](CCCNC(=N)N)C(=O)N[C@@H](CCCNC(=N)N)C(=O)N[C@@H](Cc1c[nH]cn1)C(=O)N[C@@H](CCCNC(=N)N)C(=O)O)[C@@H](C)CC [AnFI2, GILRSLGWIQMPRSRRRHR] (H-GILRSLGWIQMPRSRRRHR-OH; N-terminus and C-terminus assumed)	16-32	128	> 128
CC[C@H](C)[C@H](NC(=O)[C@H](CCCCN)NC(=O)[C@@H](N)CCCNC(=N)N)C(=O)N[C@H](C(=O)N[C@@H](C)C(=O)N[C@H](C(=O)N[C@@H](CO)C(=O)N[C@H](C(=O)N[C@@H](Cc1c[nH]cn1)C(=O)N[C@@H](CCCCN)C(=O)N[C@@H](CC(C)C)C(=O)N[C@@H](CS)C(=O)N[C@@H](CCCNC(=N)N)C(=O)N[C@H](C(=O)N[C@@H](CCCCN)C(=O)N[C@@H](CCCNC(=N)N)C(=O)O)C(C)C)C(C)C)C(C)C)[C@@H](C)CC [BoUs1, RKIIAVSVHKLCRVKR] (H-RKIIAVSVHKLCRVKR-OH; N-terminus and C-terminus assumed)	–	N/O	–
CC[C@H](C)[C@H](NC(=O)[C@@H]1CCCN1C(=O)[C@H](CS)NC(=O)[C@H](C)NC(=O)[C@@H](N)Cc1ccccc1)C(=O)NCC(=O)N[C@@H](Cc1ccccc1)C(=O)N[C@@H](Cc1ccccc1)C(=O)N[C@@H](CCCNC(=N)N)C(=O)N[C@@H](CC(C)C)C(=O)N[C@@H](CCCCN)C(=O)N[C@@H](CCCNC(=N)N)C(=O)O [CaCa1, FACPIGFFRLKR] (H-FACPIGFFRLKR-OH; N-terminus and C-terminus assumed)	> 1	N/O	N/O
CC(C)C[C@H](NC(=O)[C@@H](NC(=O)[C@H](Cc1ccccc1)NC(=O)[C@H](C)NC(=O)CN)C(C)C)C(=O)N[C@@H](Cc1c[nH]c2ccccc12)C(=O)NCC(=O)N1CCC[C@H]1C(=O)N[C@H](C(=O)N1CCC[C@H]1C(=O)N[C@@H](CCCNC(=N)N)C(=O)N1CCC[C@H]1C(=O)N[C@@H](CCCNC(=N)N)C(=O)N[C@@H](CCCNC(=N)N)C(=O)N[C@@H](CCCNC(=N)N)C(=O)O)[C@@H](C)O [DiLo1, GAFVLWGPTPRPRRR] (H-GAFVLWGPTPRPRRR-OH; N-terminus and C-terminus assumed)	> 1	N/O	N/O
CC[C@H](C)[C@H](NC(=O)CNC(=O)[C@H](CCCNC(=N)N)NC(=O)[C@H](CC(C)C)NC(=O)[C@H](CC(C)C)NC(=O)CN)C(=O)N[C@@H](CC(C)C)C(=O)NCC(=O)N[C@@H](C)C(=O)NCC(=O)N[C@@H](CCCCN)C(=O)N[C@@H](CCCCN)C(=O)N[C@H](C(=O)N[C@H](C(=O)N[C@@H](CS)C(=O)NCC(=O)N[C@@H](CC(C)C)C(=O)N[C@@H](CO)C(=O)NCC(=O)N[C@@H](CC(C)C)C(=O)N[C@@H](CS)C(=O)O)C(C)C)[C@@H](C)CC [OdMa2] (H-GLLRGILGAGKKIVCGLSGLC-OH; N-terminus and C-terminus assumed)	32	16- 32	8- 16
CC[C@H](C)[C@H](NC(=O)CN)C(=O)N[C@@H](CC(C)C)C(=O)N[C@@H](CO)C(=O)NCC(=O)N[C@@H](CC(C)C)C(=O)N[C@@H](CC(C)C)C(=O)NCC(=O)N[C@@H](C)C(=O)NCC(=O)N[C@@H](CCCCN)C(=O)N[C@@H](CCCCN)C(=O)N[C@H](C(=O)N[C@H](C(=O)N[C@@H](CS)C(=O)O)C(C)C)[C@@H](C)CC [OdMa4, GILSGLLGAGKKIVC] (H-GILSGLLGAGKKIVC-OH; N-terminus and C-terminus assumed)	–	N/O	–
CC[C@H](C)[C@H](NC(=O)CN)C(=O)N[C@@H](CC(C)C)C(=O)N[C@@H](CO)C(=O)NCC(=O)N[C@@H](CC(C)C)C(=O)N[C@@H](CC(C)C)C(=O)NCC(=O)N[C@@H](C)C(=O)NCC(=O)N[C@@H](CCCCN)C(=O)N[C@@H](CCCCN)C(=O)N[C@H](C(=O)N[C@H](C(=O)N[C@@H](CS)C(=O)NCC(=O)N[C@@H](CC(C)C)C(=O)N[C@@H](CO)C(=O)NCC(=O)N[C@@H](CC(C)C)C(=O)N[C@@H](CS)C(=O)O)C(C)C)[C@@H](C)CC [OdMa5] (H-GILSGLLGAGKKIVCGLSGLC-OH; N-terminus and C-terminus assumed)	8- 16	8- 16	1- 2
CC[C@H](C)[C@H](NC(=O)CNC(=O)[C@H](CO)NC(=O)[C@@H](NC(=O)[C@H](CC(C)C)NC(=O)CN)[C@@H](C)CC)C(=O)N[C@@H](CC(C)C)C(=O)NCC(=O)N[C@@H](C)C(=O)NCC(=O)N[C@@H](CCCCN)C(=O)N[C@@H](CCCCN)C(=O)N[C@H](C(=O)N[C@@H](CC(C)C)C(=O)N[C@@H](CS)C(=O)O)C(C)C [OdMa9, GLISGILGAGKKVLC] (H-GLISGILGAGKKVLC-OH; N-terminus and C-terminus assumed)	–	N/O	–
CC[C@H](C)[C@H](NC(=O)CNC(=O)[C@H](CO)NC(=O)[C@@H](NC(=O)[C@H](CC(C)C)NC(=O)CN)[C@@H](C)CC)C(=O)N[C@@H](CC(C)C)C(=O)NCC(=O)N[C@@H](C)C(=O)NCC(=O)N[C@@H](CCCCN)C(=O)N[C@@H](CCCCN)C(=O)N[C@H](C(=O)N[C@@H](CC(C)C)C(=O)N[C@@H](CS)C(=O)NCC(=O)N[C@@H](CC(C)C)C(=O)N[C@@H](CO)C(=O)NCC(=O)N[C@@H](CC(C)C)C(=O)N[C@@H](CS)C(=O)O)C(C)C [OdMa10] (H-GLISGILGAGKKVLCGLSGLC-OH; N-terminus and C-terminus assumed)	–	–	N/O
CC[C@H](C)[C@H](NC(=O)CN)C(=O)N[C@@H](Cc1ccccc1)C(=O)NCC(=O)NCC(=O)N[C@@H](Cc1c[nH]cn1)C(=O)N[C@@H](CC(C)C)C(=O)N[C@@H](CCCCN)C(=O)N[C@H](C(=O)NCC(=O)N[C@@H](CCCCN)C(=O)N[C@@H](CCCCN)C(=O)N[C@H](C(=O)N[C@@H](C)C(=O)N[C@@H](CS)C(=O)NCC(=O)N[C@@H](CC(C)C)C(=O)N[C@@H](CO)C(=O)NCC(=O)N[C@@H](CC(C)C)C(=O)N[C@@H](CS)C(=O)O)[C@@H](C)CC)C(C)C [OdTo2] (H-GIFGGHLKVGKKIACGLSGLC-OH; N-terminus and C-terminus assumed)	> 4	N/O	N/O
CC[C@H](C)[C@H](NC(=O)CN)C(=O)N[C@@H](Cc1ccccc1)C(=O)NCC(=O)NCC(=O)N[C@@H](CC(C)C)C(=O)N[C@@H](CC(C)C)C(=O)N[C@@H](CCCCN)C(=O)N[C@@H](CCC(=O)O)C(=O)NCC(=O)N[C@@H](CCCCN)C(=O)N[C@@H](CCCCN)C(=O)N[C@H](C(=O)N[C@@H](C)C(=O)N[C@@H](CS)C(=O)NCC(=O)N[C@@H](CC(C)C)C(=O)N[C@@H](CO)C(=O)NCC(=O)N[C@@H](CC(C)C)C(=O)N[C@@H](CS)C(=O)O)[C@@H](C)CC [OdTo3] (H-GIFGGLLKEGKKIACGLSGLC-OH; N-terminus and C-terminus assumed)	–	N/O	N/O
CC[C@H](C)[C@H](NC(=O)CN)C(=O)N[C@@H](CC(C)C)C(=O)N[C@@H](CO)C(=O)NCC(=O)N[C@@H](CC(C)C)C(=O)N[C@@H](CC(C)C)C(=O)NCC(=O)N[C@@H](C)C(=O)NCC(=O)N[C@@H](CCCCN)C(=O)N[C@@H](CCCCN)C(=O)N[C@H](C(=O)N[C@H](C(=O)N[C@@H](CS)C(=O)NCC(=O)N[C@@H](CC(C)C)C(=O)N[C@@H](CO)C(=O)NCC(=O)N[C@@H](CCSC)C(=O)N[C@@H](CS)C(=O)O)C(C)C)[C@@H](C)CC [RaOm2] (H-GILSGLLGAGKKIVCGLSGMC-OH; N-terminus and C-terminus assumed)	–	N/O	N/O
CC[C@H](C)[C@H](NC(=O)[C@H](CC(C)C)NC(=O)[C@H](CCCCN)NC(=O)[C@H](CC(C)C)NC(=O)CNC(=O)CNC(=O)[C@H](CCCCN)NC(=O)[C@@H](NC(=O)[C@H](CC(C)C)NC(=O)[C@H](CCCCN)NC(=O)CNC(=O)[C@@H](NC(=O)[C@H](CC(C)C)NC(=O)CN)C(C)C)C(C)C)C(=O)NCC(=O)N[C@@H](Cc1c[nH]cn1)C(=O)N[C@H](C(=O)N[C@@H](C)C(=O)N[C@@H](CC(N)=O)C(=O)NCC(=O)O)C(C)C [RaSi1] (H-GLVGKLVKGGLKLIGHVANG-OH; N-terminus and C-terminus assumed)	–	–	N/O
CC[C@H](C)[C@H](NC(=O)[C@H](CCCNC(=N)N)NC(=O)[C@H](CCCNC(=N)N)NC(=O)[C@@H]1CCCN1C(=O)[C@H](CS)NC(=O)[C@H](CS)NC(=O)[C@H](Cc1ccc(O)cc1)NC(=O)[C@H](CS)NC(=O)[C@H](CC(C)C)NC(=O)[C@@H](NC(=O)[C@H](CCCNC(=N)N)NC(=O)[C@@H](NC(=O)[C@H](Cc1ccccc1)NC(=O)[C@H](C)N)C(C)C)[C@@H](C)CC)C(=O)N[C@@H](CCCCN)C(=O)N[C@@H](CCCNC(=N)N)C(=O)N[C@@H](CCCNC(=N)N)C(=O)O [TeRu2, AFVRILCYCCPRRIKRR] (H-AFVRILCYCCPRRIKRR-OH; N-terminus and C-terminus assumed)	–	N/O	–
